We go through 29 compounds from PubChem BioAssay AID1376 (SRMLSC, 2008).

By UniProt entry, the sequences of proteins in these tests, tags left out.
UniProt P9WMN3, whole entry: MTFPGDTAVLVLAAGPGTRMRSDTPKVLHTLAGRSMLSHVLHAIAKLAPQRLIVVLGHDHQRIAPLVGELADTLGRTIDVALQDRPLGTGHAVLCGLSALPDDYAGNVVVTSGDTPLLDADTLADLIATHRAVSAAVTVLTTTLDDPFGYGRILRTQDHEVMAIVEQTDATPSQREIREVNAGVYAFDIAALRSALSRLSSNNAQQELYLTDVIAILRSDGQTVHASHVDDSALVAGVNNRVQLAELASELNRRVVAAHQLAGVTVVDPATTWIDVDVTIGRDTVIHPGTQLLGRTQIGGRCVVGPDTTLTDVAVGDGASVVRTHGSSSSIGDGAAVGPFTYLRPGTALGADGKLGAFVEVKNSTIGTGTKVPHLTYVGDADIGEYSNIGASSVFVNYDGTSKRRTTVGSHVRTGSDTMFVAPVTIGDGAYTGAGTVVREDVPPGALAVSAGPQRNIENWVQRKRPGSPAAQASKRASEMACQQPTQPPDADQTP

Only a part is listed here, and it is no random draw. Results with a measured potency or affinity are listed apart. Calls of active or inactive are those of the source. Cut-off read from the data, not from the text of the source: active = inhibition above about 13%; inconclusive = no clear call, values can overlap the other calls; inactive = below that.

The assay concerns the target Bifunctional protein GlmU (Mycobacterium tuberculosis (strain ATCC 25618 / H37Rv)) (UniProt P9WMN3). Kind of assay: inhibition of mycobacterial GlmU enzyme – biochemical, glucosamine-1-phosphate acetyltransferase (AID 1376).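 Note: 0% = complete reaction with vehicle and 100% = reaction without substrate.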 The following applies: M. tuberculosis GlmU acetyltransferase enzyme assay; hits give high values;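 tested at 30 µM in the primary screen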.
A word on the inhibition: it is the drop in the measured response relative to a control, in per cent. Take `c1ccc(CN2CCC(Nc3ccccc3)CC2)cc1`: the inhibition was inactive: 0.85%. In the case of `N#Cc1ccc(C(=O)NCC2(N3CCCCC3)CCCCC2)cc1` it was inactive: -2.12%. In the case of `O=C(OC1CN2CCC1CC2)C1c2ccccc2C=Cc2ccccc21` (centres undefined) it was inactive: -0.19%. In the case of `COc1ccc(C(=O)NCC2(N3CCOCC3)CCCCC2)cc1OC` it was inactive: -1.09%; in that of `CCCOc1ccc(C)cc1CN(CCCl)CCCl`, inactive: 1.62%; in that of `CCC(CO)(C(=O)OC1CN2CCC1CC2)c1ccccc1` (centres undefined), inactive: -1.42%. Consider `COc1cc(OC)cc(C(=O)NCC2(N3CCOCC3)CCCCC2)c1`, for which the inhibition was inactive: 2.25%. Consider `CC(C)(C)OC(=O)N1CCC(Nc2ccccc2)CC1`, for which the inhibition is inactive: 7.79%.

As for `CCOc1ncccc1C(=O)NCC1(N2CCOCC2)CCCCC1`, the inhibition is inactive: -0.04%. For `CN(C)c1ccc(C(=O)NCC2(N3CCCCC3)CCCCC2)cc1`, the inhibition is inactive: -3.28%. In the case of `CCN1CCC(Nc2cccc(F)c2)CC1` it was inactive: 0.07%.

Consider `Fc1ccccc1NC1CCN(Cc2ccccc2)CC1`, for which the inhibition was inactive: -5.64%. Consider `Cc1ccc(OCC(C)C)c(CN(CCCl)CCCl)c1`, for which the inhibition is inactive: -4.9%.

For `COc1ccc(NC2CCN(CCc3ccccc3)CC2)c(OC)c1`, the inhibition was inactive: -2.48%. In the case of `CCOc1ccc(C)cc1CN(CCCl)CCCl` it was inactive: -1.99%.

As to `CCOC(=O)N1CCC(Nc2ccc(OC)cc2)CC1`, the inhibition is inactive: -2.94%. In the case of `O=C(OC1CN2CCC1CC2)C1c2ccccc2Oc2ccccc21` (centres undefined) it was inactive: -0.04%; in that of `N#CC1(Nc2ccccc2)CCN(Cc2ccccc2)CC1`, inactive: -0.06%. The figure for `O=C(NCC1(N2CCOCC2)CCCCC1)c1cc2ccccc2o1` is inactive: 1.96%; for `COc1ccc(C(=O)NCC2(N3CCCCC3)CCCCC2)c(OC)c1OC` it is inactive: 0.12%. Turning to `CN1CCC(Nc2cccc(F)c2)CC1`, the inhibition is inactive: -6.22%.

For `CN(C)c1cccc(C(=O)NCC2(N3CCCCC3)CCCCC2)c1`, the inhibition was inactive: -2.28%. `COc1ccc(CN(CCCl)CCCl)cc1Cl`: the inhibition is inactive: -0.11%. In the case of `CC(C)c1ccc(NC2CCN(C(=O)OC(C)(C)C)CC2)cc1` it was inactive: 3.89%. The figure for `CN1CCN(CCOC(=O)C(O)(c2ccccc2)c2ccccc2)CC1` is inactive: -1.3%; for `COc1ccc(NC2CCN(C(=O)OC(C)(C)C)CC2)cc1` it is inactive: -7.38%. In the case of `O=C(NCC1(N2CCOCC2)CCCCC1)c1cc(=O)[nH]c2ccccc12` it was inactive: -1.72%; in that of `O=C(NCC1(N2CCCCC2)CCCCC1)c1cccc([N+](=O)[O-])c1`, inactive: 1.56%.

As to `N#CC1(Nc2ccccc2)CCN(CCc2ccccc2)CC1`, the inhibition is inactive: -3.79%.
